Data on one molecule can be found in paper PMC4366854, “Molecular origins of synaptotagmin 1 activities on vesicle docking and fusion pore opening” (Scientific Reports, 2015).

By UniProt entry, the sequences of proteins in these tests, tags left out. Chains listed by the source or under a name are the forms on record and can include a tag or linker. Residues count along the entry.
UniProt P63045, 1-96, chain 1 of 3: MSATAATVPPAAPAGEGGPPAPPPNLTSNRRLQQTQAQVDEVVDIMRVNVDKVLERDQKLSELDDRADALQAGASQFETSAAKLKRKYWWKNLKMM
ternary SNARE complex of GST-tagged soluble VAMP2 (1-96), syntaxin 1A (191-266) and His-tagged SNAP-25, UniProt P32851, 191-266, chain 2 of 3: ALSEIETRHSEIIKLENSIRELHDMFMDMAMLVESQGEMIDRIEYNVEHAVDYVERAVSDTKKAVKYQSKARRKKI
ternary SNARE complex of GST-tagged soluble VAMP2 (1-96), syntaxin 1A (191-266) and His-tagged SNAP-25, UniProt P60881, whole entry C85A/C88A/C90A/C92A, chain 3 of 3: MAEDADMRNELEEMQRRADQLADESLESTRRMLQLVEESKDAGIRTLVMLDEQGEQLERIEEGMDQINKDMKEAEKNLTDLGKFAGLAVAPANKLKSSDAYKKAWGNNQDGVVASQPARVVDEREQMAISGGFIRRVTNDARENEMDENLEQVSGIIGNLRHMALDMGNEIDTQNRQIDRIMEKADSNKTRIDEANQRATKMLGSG

In the experiment the target is ternary SNARE complex of GST-tagged soluble VAMP2 (1-96), syntaxin 1A (191-266) and His-tagged SNAP-25 (rat, UniProt P63045 1-96; P32851 191-266; P60881 1-206, C85A | C88A | C90A | C92A). Description: pull-down; GST pull-down: ternary SNARE complex (GST-VAMP2 1-96 / syntaxin 1A 191-266 / His-SNAP-25) held on glutathione-agarose beads; wild-type Syt1 or mutants added in cleavage buffer (50 mM Tris-HCl pH 8.0, 150 mM NaCl, 0.8% OG) with 500 uM Ca2+, 4 °C, 1 h; SDS-PAGE, Coomassie blue; wild type also tested with BSA, 200 uM IP3 or without Ca2+. To be noted: both partners purified.

B1: Syt1 EEE (Lys326, Lys327, Lys331 to Glu) (domain or fragment, UniProt P21707 50-421, looked up)
chain: LHKIPLPPWALIAIAIVAVLLVVTAAFAVAKKSLFKKKNKKKGKEKGGKNAINMKDVKDLGKTMKDQALKDDDAETGLTDGEEKEEPKEEEKLGKLQYSLDYDFQNNQLLVGIIQAAELPALDMGGTSDPYVKVFLLPDKKKKFETKVHRKTLNPVFNEQFTFKVPYSELGGKTLVMAVYDFDRFSKHDIIGEFKVPMNTVDFGHVTEEWRDLQSAEKEEQEKLGDICFSLRYVPTAGKLTVVILEAKNLKKMDVGGLSDPYVKIHLMQNGKRLKKEETTIEKNTLNPYYNESFSFEVPFEQIQKVQVVVTVLDYDKIGKNDAIGKVFVGYNSTGAELRHWSDMLANPRRPIAQWHTLQVEEEVDAMLAVKK
notes: synaptotagmin 1 (Syt1), amino acids 50-421; polybasic region mutant of m1; The methods print L326/327/331E; also called Syt1 EEE (L326/327/331E); source: E. coli BL21 (DE3), purified
Regarding B1, the binding result is reported as “binds”.
